# Patent publication EP0443559A2 (BIO-MEGA/BOEHRINGER INGELHEIM RESEARCH INC., priority 1990, dated 1991)
# Strings that start with PEPTIDE1 are HELM notation: dots part the residues, brackets hold end groups and non-standard residues.
# Assay: general procedure: solution-phase peptide synthesis; BOP
Substance,step yield (coupling step),step yield (late stage modification step)
(4-BzlOPh)CH₂CH₂C(O)-Val-ACHPA-Leu-PheNH₂,77%,–
(4-HOPh)CH₂CH₂CO-Val-ACHPA-Leu-Phe-NH₂,–,61%
Ac-Val-Pheψ[CH₂NH]Leu-Glu(OBzl)-Ile-NH₂,52%,–
Boc-Val-ACHPA-Leu-Phe-NH₂,84%,–
PEPTIDE1{[BzlOCOCH2OPhCH2CH2CO].V.[ACHPA].L.F.[am]}$$$$V2.0,–,30%
PEPTIDE1{[S-glyceroyl].V.[ACHPA].L.F.[am]}$$$$V2.0,42%,–
PEPTIDE1{[ac].V.[PhepsiCH2NHLeu].E.I.[am]}$$$$V2.0,–,96%
[4-(HOC(O)CH₂O)Ph]CH₂CH₂C(O)-Val-ACHPA-Leu-Phe-NH₂,–,81%
